This note sets out measurements from patent US20050048563A1, “Membrane molecule indicator compositions and methods” (Novasite Pharmaceuticals, Inc, priority 2000, published 2005).

This test relates to PLC. The following applies: 5 μM PAO pretreatment for 10 minutes, BK 1 μM.

For the molecule `O=[As]c1ccccc1` (stereo not shown), the “BK-induced translocation of PLCδ1PH-GFP to the cytosol in PAO-treated cells” value is reported as “sustained translocation”.
